PubChem BioAssay AID1259414 | Drosophila RNAi Screening Center – 2018
Purpose: 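Host factors increasing or decreasing Wolbachia levels in cultured fly cells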 (primary screen). System: Drosophila JW18 cells infected with Wolbachia. Reagents: long dsRNA against Drosophila genes, 0.25 µg dsRNA per well of a 384-well plate. Duration: 5 days. Challenge: cells persistently infected with Wolbachia before knock-down; no added drug. Read-out: 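Imaged fluorescence in situ signal for Wolbachia 23S rRNA per DAPI-counted host cell, given as a robust z-score within each plate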. Reading the numbers: Wolbachia per cell robust z: higher = more Wolbachia per host cell than the plate typical. Rule for the call: 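Active if absolute robust z reaches 1.5 in two or more of three replicates, leaving out multi- or no-target dsRNAs, genes unexpressed in JW18 and A1 wells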.
The screen tested about 24,000 reagents; below is an unselected part of those with a known target gene and a result. Over the whole deposit, about 1,210 (5%) were called active. 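Inactive calls also include excluded dsRNAs with several or no targets, genes unexpressed in JW18, and well A1, regardless of score.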 A plus sign joins genes that one reagent is predicted to hit.

Depletion of Psf1 + Klp61F + CG32318 [DRSC23255] resulted in: Wolbachia per cell robust z, rep 1 = -0.879; Wolbachia per cell robust z, rep 2 = -1.13; Wolbachia per cell robust z, rep 3 = 0.8; inactive.
For smal [DRSC02318], the values are Wolbachia per cell robust z, rep 1 = -0.65; Wolbachia per cell robust z, rep 2 = 0.0717; Wolbachia per cell robust z, rep 3 = -0.236; inactive.
Against smal [DRSC02319], the entry reads Wolbachia per cell robust z, rep 1 = -1.72; Wolbachia per cell robust z, rep 2 = 0.545; Wolbachia per cell robust z, rep 3 = -0.11; inactive.
Silencing of smal [DRSC02320] gave: Wolbachia per cell robust z, rep 1 = 0.0748; Wolbachia per cell robust z, rep 2 = -0.144; Wolbachia per cell robust z, rep 3 = -0.575; inactive.
With knock-down of smal [DRSC02504], the record shows Wolbachia per cell robust z, rep 1 = -0.633; Wolbachia per cell robust z, rep 2 = 1.61; Wolbachia per cell robust z, rep 3 = -0.77; inactive.
smal [DRSC22866] gave Wolbachia per cell robust z, rep 1 = -0.644; Wolbachia per cell robust z, rep 2 = -0.598; Wolbachia per cell robust z, rep 3 = -2.86; inactive.
After knock-down of smal [DRSC26352] the results were Wolbachia per cell robust z, rep 1 = 0.158; Wolbachia per cell robust z, rep 2 = -0.00938; Wolbachia per cell robust z, rep 3 = -1.48; inactive.
Elk [DRSC07608] showed Wolbachia per cell robust z, rep 1 = 0.349; Wolbachia per cell robust z, rep 2 = -0.52; Wolbachia per cell robust z, rep 3 = -0.545; inactive.
Against lost [DRSC12002] the deposit lists Wolbachia per cell robust z, rep 1 = -1.25; Wolbachia per cell robust z, rep 2 = -0.0663; Wolbachia per cell robust z, rep 3 = -1.17; inactive.
Against lost [DRSC12234], the entry reads Wolbachia per cell robust z, rep 1 = -1.74; Wolbachia per cell robust z, rep 2 = 0.676; Wolbachia per cell robust z, rep 3 = 0.31; inactive.
Against lost [DRSC21987] the deposit lists Wolbachia per cell robust z, rep 1 = -0.208; Wolbachia per cell robust z, rep 2 = 0.377; Wolbachia per cell robust z, rep 3 = 0.129; inactive.
Silencing of mop [DRSC11065] resulted in: Wolbachia per cell robust z, rep 1 = 0.533; Wolbachia per cell robust z, rep 2 = 1.04; Wolbachia per cell robust z, rep 3 = 0.984; inactive.
Knock-down of mop [DRSC28489] came out at: Wolbachia per cell robust z, rep 1 = 1.96; Wolbachia per cell robust z, rep 2 = 1.86; Wolbachia per cell robust z, rep 3 = 1.64; active.
Silencing of eIF6 [DRSC04674] came out at: Wolbachia per cell robust z, rep 1 = -1.25; Wolbachia per cell robust z, rep 2 = -5.29; Wolbachia per cell robust z, rep 3 = 0.307; inactive.
After knock-down of eIF6 [DRSC29068] the results were Wolbachia per cell robust z, rep 1 = -0.586; Wolbachia per cell robust z, rep 2 = -0.724; Wolbachia per cell robust z, rep 3 = -0.0269; inactive.
CG8329 [DRSC10978] scored Wolbachia per cell robust z, rep 1 = -1.07; Wolbachia per cell robust z, rep 2 = -0.262; Wolbachia per cell robust z, rep 3 = -3.89; inactive.
Knock-down of CG8329 [DRSC26746] gave: Wolbachia per cell robust z, rep 1 = 0.644; Wolbachia per cell robust z, rep 2 = -1.04; Wolbachia per cell robust z, rep 3 = -0.572; inactive.
Knock-down of CG5359 [DRSC15780] gave: Wolbachia per cell robust z, rep 1 = 0.866; Wolbachia per cell robust z, rep 2 = -4.08; Wolbachia per cell robust z, rep 3 = -0.0505; inactive.
After knock-down of CG14105 [DRSC10107], the screen gave Wolbachia per cell robust z, rep 1 = -1.12; Wolbachia per cell robust z, rep 2 = 0.0542; Wolbachia per cell robust z, rep 3 = -1.3; inactive.
After knock-down of otu [DRSC18811], the record shows Wolbachia per cell robust z, rep 1 = 0.0348; Wolbachia per cell robust z, rep 2 = -0.243; Wolbachia per cell robust z, rep 3 = 0.534; inactive.
For otu [DRSC27953] the deposit lists Wolbachia per cell robust z, rep 1 = -0.412; Wolbachia per cell robust z, rep 2 = 0.611; Wolbachia per cell robust z, rep 3 = -0.903; inactive.
With knock-down of dmrt93B [DRSC15865] the results were Wolbachia per cell robust z, rep 1 = -1.07; Wolbachia per cell robust z, rep 2 = -0.424; Wolbachia per cell robust z, rep 3 = 0.258; inactive.
After knock-down of dmrt93B [DRSC29931], the record shows Wolbachia per cell robust z, rep 1 = -0.188; Wolbachia per cell robust z, rep 2 = -0.712; Wolbachia per cell robust z, rep 3 = 0.374; inactive.
With knock-down of TwdlC [DRSC14749], the screen gave Wolbachia per cell robust z, rep 1 = 0.316; Wolbachia per cell robust z, rep 2 = 0.604; Wolbachia per cell robust z, rep 3 = 1.09; inactive.
Against TwdlC [DRSC25255], the values are Wolbachia per cell robust z, rep 1 = -1.03; Wolbachia per cell robust z, rep 2 = 0.908; Wolbachia per cell robust z, rep 3 = -0.373; inactive.

Ordered by “Wolbachia per cell robust z, rep 3” (high to low): 3 of the entries above.
otu [DRSC18811] → Wolbachia per cell robust z, rep 1: 0.0348; Wolbachia per cell robust z, rep 2: -0.243; Wolbachia per cell robust z, rep 3: 0.534; call: inactive
dmrt93B [DRSC15865] → Wolbachia per cell robust z, rep 1: -1.07; Wolbachia per cell robust z, rep 2: -0.424; Wolbachia per cell robust z, rep 3: 0.258; call: inactive
otu [DRSC27953] → Wolbachia per cell robust z, rep 1: -0.412; Wolbachia per cell robust z, rep 2: 0.611; Wolbachia per cell robust z, rep 3: -0.903; call: inactive
